Anti-infective test results gathered from many reports (values: NIAID ChemDB through PubChem).

Common to all: whole-cell or culture tests; organism: HIV-1

An empty or dashed field is not shown. Lines come from different laboratories, so protocols vary. ECn: concentration that inhibits the pathogen or its effect by n%.

| smiles | method | strain | changes | endpoint | cell line | result |
|---|---|---|---|---|---|---|
| Cc1cc(OC(F)(F)c2nc3ccccc3o2)cc(C)c1C | cytopathic effect / XTT | RF | - | EC50 | CEM + CEM-SS | 13 µM |
| CCOC(=O)c1cc(NC(=S)c2ccoc2C)ccc1C | syncytia | - | RT-Y181C | EC50 | CEM | 1.9 µM |
| COc1cccc2c1nc(-c1ccccc1F)n2Cc1ccco1 | - | IIIB | - | EC50 | MT-4 | 0.015 µg/mL |
| Cc1ccsc1C(=O)Nc1ccc(Cl)c(C(=O)OC2CCCCC2)c1 | syncytia | - | RT-L100I | EC50 | CEM | 14 µM |
| COc1cccc2c1nc(-c1ccccc1F)n2Cc1cccc(C#N)c1 | - | IIIB | - | EC50 | MT-4 | 0.0081 µg/mL |
| COc1ccc(-c2c(C)nc3c(N4CC[C@@H](NC(=O)Cc5ccccc5)C4)cc(C)nn23)cc1OC | p24 | - | - | EC50 | H9 | 0.1 µM |
| Cc1cc(C)cc(S(=O)(=O)c2c(C(=O)NCC(N)=O)[nH]c3ccc(Cl)cc23)c1 | cytopathic effect / MTT | - | RT-K103R | EC50 | C8166 | <0.1 µM |
| COc1cccc2c1nc(-c1ccccc1F)n2Cc1ccccc1C#N | - | IIIB | - | EC50 | MT-4 | 0.061 µg/mL |
| C/C=C/CSc1cc(NC(=S)c2ccsc2C)ccc1Cl | syncytia | - | RT-V106A | EC50 | CEM | 0.078 µM |
| CN1CC(=O)C(=O)C=C1Cn1cnc([N+](=O)[O-])c1Sc1ccccc1 | MTT | IIIB | - | EC90 | MT-4 | >23.6 µM |
| CCOCn1c(Cc2ccccc2)c(CC)c(=O)[nH]c1=O | syncytia | IIIB | RT-Y188H | EC50 | CEM | ≥30 µM |
| CN(C(=O)[C@H](Cc1cc(F)cc(F)c1)NC(=O)NS(=O)(=O)N[C@@H](Cc1cc(F)cc(F)c1)C(=O)N(C)c1ccc(C(F)(F)F)nc1)c1ccc(C(F)(F)F)nc1 | luciferase | NL4-3 | - | EC50 | MT-2 | 0.47 µM |
| CCOCn1c(Cc2cc(C)cc(C)c2)c(CC)c(=O)[nH]c1=O | syncytia | IIIB | RT-E138K | EC50 | CEM | 0.009 µM |
| COc1ccc(-c2c(C)nc3c(N4CC[C@@H](NC(C)=O)C4)cc(C)nn23)cc1 | p24 | - | - | EC50 | H9 | 1 µM |
| CC(C)n1c(=O)c(O)c2n(c1=O)C(CCN(C)S(C)(=O)=O)CN(Cc1ccc(F)cc1)C2=O | p24 | - | - | EC95 | MT-4 | <10 µM |
| COc1ccc(N(C)C(=O)[C@H](Cc2ccccc2)NC(=O)c2ccccc2-c2ccccc2C(=O)N(C)[C@@H](Cc2ccccc2)C(=O)N(C)c2ccc(OC)cc2)cc1 | luciferase | NL4-3 | - | EC50 | MT-2 | 1.4 µM |
| Cc1ccsc1C(=S)Nc1ccc(Cl)c(/C=N/OC(C)(C)C)c1 | syncytia | - | RT-E138K | EC50 | CEM | 0.135 µM |
| COc1cccc2c1nc(-c1ccccc1F)n2Cc1cccc(Cl)c1 | - | IIIB | - | EC50 | MT-4 | 0.016 µg/mL |
| COc1ccc(N(C)C(=O)[C@H](Cc2ccccc2)NC(=O)C[C@H](O)C(=O)N[C@@H](Cc2ccccc2)C(=O)N(C)c2ccc(OC)cc2)cc1 | luciferase | NL4-3 | - | EC50 | MT-2 | 3.29 µM |
| C=C(C)[C@@H]1CC[C@]2(C(=O)NCCCCCCCC(=O)N[C@@H](CC(C)C)[C@@H](O)CC(=O)O)CC[C@]3(C)[C@H](CC[C@@H]4[C@@]5(C)CC[C@H](O)C(C)(C)[C@@H]5CC[C@]43C)[C@@H]12 | syncytia | LAI | I84S | EC50 | HeLa P4 + HeLa | >10 µM |
| CCOCn1c(Sc2cc(C)cc(C)c2)c(CC)c(=O)[nH]c1=S | syncytia | IIIB | RT-E138K | EC50 | CEM | 0.03 µM |
| COc1ccc(N(CCF)C(=O)[C@H](Cc2cc(F)cc(F)c2)NC(=O)CN2c3ccccc3N(CC(=O)N[C@@H](Cc3cc(F)cc(F)c3)C(=O)N(CCF)c3ccc(OC)cc3)S2(=O)=O)cc1 | luciferase | NL4-3 | - | EC50 | MT-2 | 0.09 µM |
| CC(C)n1c(=O)c(O)c2n(c1=O)C[C@@H]1CC[C@H](c3ccccc3)N1C2=O | p24 | - | - | EC95 | MT-4 | <10 µM |
| Cn1cccc1C(=S)Nc1ccc(Cl)c(/C=N/OC(C)(C)C)c1 | syncytia | - | RT-L100I | EC50 | CEM | 0.364 µM |
| CC(C)c1c(Sc2ccccc2)n(COCc2ccccc2)c(=S)[nH]c1=O | syncytia | IIIB | - | EC50 | CEM | 0.004 µM |
| Cc1ccoc1C(=S)Nc1ccc(Cl)c(C(=O)OC(C)C)c1 | syncytia | - | RT-V106A | EC50 | CEM | 16 µM |
| C=CCN(C(=O)[C@H](Cc1cc(F)cc(F)c1)NS(=O)(=O)CCCS(=O)(=O)N[C@@H](Cc1cc(F)cc(F)c1)C(=O)N(CC=C)c1ccc(OC)cc1)c1ccc(OC)cc1 | luciferase | NL4-3 | - | EC50 | MT-2 | 2.64 µM |
| Cc1cc(C)cc(Cc2c(C(C)C)c(=O)[nH]c(=O)n2COCCO)c1 | syncytia | IIIB | RT-E138K | EC50 | CEM | 0.53 µM |
| O=C1c2c(O)c(=O)n(N3CCCCCC3)c(=O)n2CCN1Cc1ccc(F)cc1 | p24 | - | - | EC95 | MT-4 | <10 µM |
| Cc1ccc(Nc2c([N+](=O)[O-])ncn2CC2=CC(=O)C(=O)CN2C)cc1 | MTT | IIIB | - | EC50 | MT-4 | >25.4 µM |
| O=C1c2c(O)c(=O)n(Cc3nccc4ccccc34)c(=O)n2CCN1Cc1ccc(F)cc1 | p24 | - | - | EC95 | MT-4 | <10 µM |
| FC(F)(Sc1ncccn1)c1nc2ccccc2o1 | - | HEPT/236 | RT-P236L | EC50 | - | 8.64 µM |
| CC(C)c1c(Sc2ccccc2)n(COCc2ccccc2)c(=O)[nH]c1=O | syncytia | IIIB | RT-Y188H | EC50 | CEM | ≥10 µM |
| CC#CCN(C(=O)[C@H](Cc1cc(F)cc(F)c1)NC(=O)c1cc(F)c(F)cc1C(=O)N[C@@H](Cc1cc(F)cc(F)c1)C(=O)N(CC#CC)c1ccc(OC)cc1)c1ccc(OC)cc1 | luciferase | NL4-3 | - | EC50 | MT-2 | 6.83 µM |
| CC(C)OC(=O)c1cc(NC(=S)OC(C)C)ccc1Cl | syncytia | IIIB | RT-V179D | EC50 | CEM | 0.33 µM |
| CN1CC(=O)C(=O)C=C1Cn1cnc([N+](=O)[O-])c1Nc1ccccc1 | MTT | IIIB | - | EC90 | MT-4 | >250 µM |
| Nc1ccn([C@H]2S[C@@H](CO)C=C2F)c(=O)n1 | PCR | BRU | - | EC50 | PBMC | <5.2 µM |
| Cc1occc1C(=S)Nc1ccc(Cl)c(OC(=O)OC(C)C)c1 | syncytia | IIIB | - | EC50 | CEM | 1.1 µM |
| COc1ccc(-c2c(-c3ccc(C)cc3)nc3c(N4CC[C@@H](NC(C)=O)C4)cc(C)nn23)cc1OC | p24 | - | - | EC50 | H9 | 0.05 µM |
| CCc1c(Sc2cc(C)cc(C)c2)n(COCc2ccccc2)c(=S)[nH]c1=O | syncytia | IIIB | RT-Y181C | EC50 | CEM | 0.32 µM |
| Cc1ccsc1C(=O)Nc1ccc(Cl)c(/C=N/OC(C)(C)C)c1 | syncytia | - | RT-E138K | EC50 | CEM | 4.4 µM |
| CS(=O)c1ccc(-c2nc(-c3ccc(F)cc3)c(-c3ccncc3)[nH]2)cc1 | p24 | BaL | - | EC50 | PBMC | >1 µM |
| C/C=C/COc1cc(NC(=S)c2ccn(C)c2C)ccc1Cl | syncytia | IIIB | - | EC50 | CEM | 0.058 µM |
| Cc1cc(C)cc(S(=O)(=O)c2c(C(=O)NNCCO)[nH]c3ccc(Cl)cc23)c1 | p24 | - | - | EC50 | MT-4 | <0.004 µM |
| C[C@@H]1CCO[C@H]2Cn3cc(C(=O)NCc4ccc(F)cc4F)c(=O)c(O)c3C(=O)N12 | luciferase / luminescence | - | V75I | EC50 | TZM-bl | 0.0013 µM |
| Cc1ccnc2c1NC(=O)c1cccnc1N2C1CC1 | luciferase | NL4-3 | - | EC50 | TZM-bl | 0.0279 µM |
| COc1ccc(-c2c(C)nc3c(N4CC[C@@H](NS(C)(=O)=O)C4)cc(C)nn23)cc1F | p24 | - | - | EC50 | H9 | 0.1 µM |
| Cc1occc1C(=S)Nc1ccc(Cl)c(/C=N/OCc2ccccc2)c1 | syncytia | - | RT-Y181C | EC50 | CEM | 2.3 µM |
| COc1cccc2c1nc(-c1ccccc1F)n2Cc1ccc(Cl)cc1 | - | IIIB | - | EC50 | MT-4 | 1.83 µg/mL |
| CO[C@H]1C[C@@H]2CC[C@@H](C)[C@@](O)(O2)C(=O)C(=O)N2CCCC[C@H]2C(=O)O[C@H]([C@H](C)C[C@@H]2CC[C@@H](O)[C@H](OC)C2)CC(=O)[C@H](C)/C=C(\C)[C@@H](O)[C@@H](OC)C(=O)[C@H](C)C[C@H](C)/C=C/C=C/C=C/1C | p24 | HXB2 X4 | - | EC50 | PBMC | 0.001 µM |
| Cc1occc1C(=S)Nc1ccc(Cl)c(/C=N/OC(C)(C)C)c1 | syncytia | IIIB | RT-K103N | EC50 | CEM | 1.14 µM |
| CN1CC(=O)C(=O)C=C1Cn1cnc([N+](=O)[O-])c1Nc1cc(Cl)cc(Cl)c1 | MTT | IIIB | - | EC50 | MT-4 | >7.3 µM |
| CCOCn1c(Sc2ccccc2)c(C(C)C)c(=O)[nH]c1=O | syncytia | IIIB | RT-E138K | EC50 | CEM | 0.45 µM |
| NC(=O)c1[nH]c2ccc(Cl)cc2c1S(=O)(=O)c1ccccc1 | p24 | - | - | EC50 | MT-4 | <0.001 µM |
| CC1=C(C(=O)Nc2ccc(Cl)c(/C=N/OC(C)(C)C)c2)CCCO1 | syncytia | - | RT-L100I | EC50 | CEM | 1.3 µM |
| Cc1cc(S(N)(=O)=O)ccc1NC(=O)COc1ccccc1C(=O)c1cc(Cl)cc(C#N)c1 | β-galactosidase | - | RT-L100I K103N | EC50 | HeLa MAGI + HeLa | <0.005 µM |
| Cc1ccnc(SC(F)(F)c2nc3ccccc3o2)n1 | - | Calanolide-resistant (RT T139I) | RT-T139I | EC50 | - | 0.43 µM |
| C=CCOC(=O)c1cc(NC(=S)c2ccoc2C)ccc1Cl | syncytia | - | RT-L100I | EC50 | CEM | 1 µM |
| CCc1c(Sc2cc(C)cc(C)c2)n(COCCO)c(=O)[nH]c1=O | syncytia | IIIB | RT-Y181C | EC50 | CEM | 0.87 µM |
| CCc1ncc(N(C)C(=O)[C@H](Cc2cc(F)cc(F)c2)NC(=O)c2ccc(F)c(C(=O)N[C@@H](Cc3cc(F)cc(F)c3)C(=O)N(C)c3cnc(CC)nc3)c2)cn1 | luciferase | NL4-3 | - | EC50 | MT-2 | 14.45 µM |
| Cc1ccccc1C(=S)Nc1ccc(Cl)c(C(=O)OC(C)C)c1 | syncytia | - | RT-V106A | EC50 | CEM | 16 µM |
| COc1ccc(-c2c(C)oc3c(N4CC[C@@H](NC(C)=O)C4)cc(C)nc23)cc1OC | p24 | - | - | EC50 | H9 | >100 µM |
| CC(C)OC(=O)c1cc(NC(=S)c2ccccc2N)ccc1Cl | syncytia | - | RT-V106A | EC50 | CEM | 15 µM |
| C[C@H](Cn1cnc2c(N)ncnc21)OCP(=O)(O)O | - | - | NL/2AZT+348 | EC50 | TZM-bl | 10.6 µM |
| Cc1ccsc1C(=S)Nc1ccc(Cl)c(C(=O)OC(C)C)c1 | syncytia | IIIB | - | EC50 | CEM | 0.06 µM |
| COc1ccc(-c2c(C)nn3c(N4CC[C@@H](NC(C)=O)C4)cc(C)nc23)cc1OC | p24 | - | - | EC50 | H9 | >100 µM |
| CN(C(=O)[C@H](Cc1cc(F)cc(F)c1)NC(=O)NS(=O)(=O)N[C@@H](Cc1cc(F)cc(F)c1)C(=O)N(C)c1ccc2snnc2c1)c1ccc2snnc2c1 | luciferase | NL4-3 | - | EC50 | MT-2 | 0.27 µM |
| Cc1sccc1C(=S)Nc1ccc(Cl)c(OCCC(C)C)c1 | syncytia | - | RT-L100I | EC50 | CEM | 0.082 µM |
| O=C1Nc2ccc(Cl)cc2[C@@](C#CC2CC2)(C(F)(F)F)O1 | MTT | - | K103N | EC50 | MT-4 | 0.119 µM |

The last 6 rows once more:

smiles,method,strain,changes,endpoint,cell line,result
C[C@H](Cn1cnc2c(N)ncnc21)OCP(=O)(O)O,-,-,NL/2AZT+348,EC50,TZM-bl,10.6 µM
Cc1ccsc1C(=S)Nc1ccc(Cl)c(C(=O)OC(C)C)c1,syncytia,IIIB,-,EC50,CEM,0.06 µM
COc1ccc(-c2c(C)nn3c(N4CC[C@@H](NC(C)=O)C4)cc(C)nc23)cc1OC,p24,-,-,EC50,H9,>100 µM
CN(C(=O)[C@H](Cc1cc(F)cc(F)c1)NC(=O)NS(=O)(=O)N[C@@H](Cc1cc(F)cc(F)c1)C(=O)N(C)c1ccc2snnc2c1)c1ccc2snnc2c1,luciferase,NL4-3,-,EC50,MT-2,0.27 µM
Cc1sccc1C(=S)Nc1ccc(Cl)c(OCCC(C)C)c1,syncytia,-,RT-L100I,EC50,CEM,0.082 µM
O=C1Nc2ccc(Cl)cc2[C@@](C#CC2CC2)(C(F)(F)F)O1,MTT,-,K103N,EC50,MT-4,0.119 µM